Pooled drug test results. Numbers come from NIAID ChemDB, via PubChem.

Common to all: enzyme or target tests

Blank or dashed fields: not listed here.

SMILES,measure,strain or isolate,target,species,tested at,result
CC(=O)OC(=O)CCCC(=O)ON[C@H](CC(C(=O)O)C(=O)O)C(=O)N[C@H](C(=O)N[C@@H](CCC(=O)O)C(=O)N[C@@H](CC1CCCCC1)C(=O)N[C@@H](CS)C(=O)C(=O)O)C(c1ccccc1)c1ccccc1,Ki,,NS3/NS4A serine protease,Hepatitis C virus,,0.002 µM
CCOC(=O)c1cc2nc(-c3ccc(Cl)cc3)cc(-c3cccc(OC)c3)n2n1,IC50,,RNA-dependent RNA polymerase,Hepatitis C virus,,>10 µM
CC(=O)N[C@@H](CC(=O)O)C(=O)N[C@H](CC(C(=O)O)C(=O)O)C(=O)N[C@@H](Cc1c[nH]c2cccc(C(=O)O)c12)C(=O)N[C@@H](CCC(=O)O)C(=O)N[C@@H](CC(=O)O)C(=O)N[C@@H](CS)C(=O)C(=O)O,Ki,,NS3/NS4A serine protease,Hepatitis C virus,,0.0000027 µM
C=CC1CC1(NC(=O)[C@@H]1C[C@@H](OC(=O)Nc2ccccc2-n2cccc2)CN1C(=O)[C@@H](NC(=O)OC(C)(C)C)C(C)(C)C)C(=O)NS(=O)(=O)C1CC1,IC50,BMS/H77C/J416S,NS3/NS4A protease,Hepatitis C virus,,<0.1 µM
CSc1ncc(C(=O)N(C)C)c(Nc2ccc3[nH]ncc3c2)n1,IC50,,Reverse transcription,Hepatitis B virus,,<0.1 µg/mL
C=CC1CC1(NC(=O)[C@@H]1C[C@@H](OC(=O)Nc2cc(C(C)=O)ccc2N2CCCCC2)CN1C(=O)[C@@H](NC(=O)OC(C)(C)C)C(C)(C)C)C(=O)NS(=O)(=O)C1CC1,IC50,BMS/H77C/J416S,NS3/NS4A protease,Hepatitis C virus,,<0.1 µM
CC[C@H](C)[C@H](NC(=O)[C@H](CC(C)C)NC(=O)CCC(=O)O)C(=O)N[C@@H](CC1CCCCC1)C(=O)NC1(C(=O)O)CC1,IC50,,Nonstructural protein 3 NTPase/helicase,Hepatitis C virus,,>83.5 µM
C=CC1CC1(NC(=O)[C@@H]1C[C@@H](OC(=O)NCc2ccccc2Cl)CN1C(=O)[C@@H](NC(=O)OC(C)(C)C)C(C)(C)C)C(=O)NS(=O)(=O)C1CC1,IC50,BMS/H77C/J416S,NS3/NS4A protease,Hepatitis C virus,,<0.1 µM
O=C(O)c1cc2nc(-c3ccccc3Cl)cc(-c3cccc(Cl)c3)n2n1,IC50,,RNA-dependent RNA polymerase,Hepatitis C virus,,>10 µM
O=C(O)CCC(=O)N[C@H](C(=O)N[C@@H](CCC(=O)O)C(=O)N[C@@H](CCC(=O)O)C(=O)NC1(C(=O)O)CC1)C(c1ccccc1)c1ccccc1,inhibition,,Nonstructural protein 3 NTPase/helicase,Hepatitis C virus,83.5 µM,22%
O=C(O)c1cc2nc(-c3ccc(Cl)cc3)cc(-c3cccc(Cl)c3)n2n1,IC50,,RNA-dependent RNA polymerase,Hepatitis C virus,,>10 µM
O=C(O)CCC(=O)N[C@H](C(=O)N[C@@H](CCC(=O)O)C(=O)N[C@@H](CCC(=O)O)C(=O)NC1(C(=O)O)CC1)C1CCCCC1,IC50,,Nonstructural protein 3 NTPase/helicase,Hepatitis C virus,,<167 µM
CC(=O)N[C@@H](CC(=O)O)C(=O)N[C@@H](C(=O)N[C@H](C(=O)N[C@@H](CCC(=O)O)C(=O)N[C@@H](CC1CCCCC1)C(=O)N[C@@H](CS)C(=O)C(=O)O)C(c1ccccc1)c1ccccc1)c1ccccc1,Ki,,NS3/NS4A serine protease,Hepatitis C virus,,2.2 µM
CSc1ncc(C(=O)NN2CCN(C)CC2)c(Nc2ccc3[nH]ncc3c2)n1,IC50,,Reverse transcription,Hepatitis B virus,,~0.1 µg/mL
C=CC1CC1(NC(=O)[C@@H]1C[C@@H](OC(=O)Nc2cccc(SC)c2)CN1C(=O)[C@@H](NC(=O)OC(C)(C)C)C(C)(C)C)C(=O)NS(=O)(=O)C1CC1,IC50,BMS/H77C/J416S,NS3/NS4A protease,Hepatitis C virus,,<0.1 µM
O=C(O)CCC(=O)N[C@H](C(=O)N[C@@H](CCC(=O)O)C(=O)N[C@H](C(=O)N[C@@H](CS)C(=O)O)C1CCCCC1)C(c1ccccc1)c1ccccc1,inhibition,,Nonstructural protein 3 NTPase/helicase,Hepatitis C virus,16.7 µM,25%
C=CC1CC1(NC(=O)[C@@H]1C[C@@H](OC(=O)Nc2c(C)cccc2CC)CN1C(=O)[C@@H](NC(=O)OC(C)(C)C)C(C)(C)C)C(=O)NS(=O)(=O)C1CC1,IC50,BMS/H77C/J416S,NS3/NS4A protease,Hepatitis C virus,,1–10 µM
O=C(O)CCCC(=O)N[C@H](C(=O)N[C@@H](CCC(=O)O)C(=O)N[C@@H](Cc1ccc2ccccc2c1)C(=O)N[C@@H](CS)C(=O)O)C1CCCCC1,inhibition,,Nonstructural protein 3 NTPase/helicase,Hepatitis C virus,16.7 µM,88%
C=CC1CC1(NC(=O)[C@@H]1C[C@@H](OC(=O)Nc2ccccc2-c2ccc(C)o2)CN1C(=O)[C@@H](NC(=O)OC(C)(C)C)C(C)(C)C)C(=O)NS(=O)(=O)C1CC1,IC50,BMS/H77C/J416S,NS3/NS4A protease,Hepatitis C virus,,<0.1 µM
O=C(N[C@@H](Cc1cc2ccccc2[nH]1)C(=O)O)c1cc2nc(OCc3ccccc3)c(CC3CCCCC3)c(=O)n2[nH]1,IC50,,RNA-dependent RNA polymerase,Hepatitis C virus,,<1 µM
CCNC(=O)c1cnc(SC)nc1Nc1ccc2[nH]ncc2c1,IC50,,Reverse transcription,Hepatitis B virus,,~0.1 µg/mL
CCC(C)[C@H](NC(=O)[C@@H](NC(=O)CCC(=O)O)C1CCCCC1)C(=O)N[C@@H](CC1CCCCC1)C(=O)N[C@@H](CS)C(=O)O,inhibition,,Nonstructural protein 3 NTPase/helicase,Hepatitis C virus,1.67 µM,29%
CCOC(=O)c1cnn2c(-c3ccccc3)cc(-c3ccc(Cl)cc3)nc12,IC50,,RNA-dependent RNA polymerase,Hepatitis C virus,,>10 µM
O=C(O)CCC(=O)N[C@@H](CCC(=O)O)C(=O)N[C@@H](CCC(=O)O)C(=O)N[C@@H](CS)C(=O)O,inhibition,,Nonstructural protein 3 NTPase/helicase,Hepatitis C virus,16.7 µM,32%
C=CC1CC1(NC(=O)[C@@H]1C[C@@H](OC(=O)Nc2ccccc2OCC)CN1C(=O)[C@@H](NC(=O)OC(C)(C)C)C(C)(C)C)C(=O)NS(=O)(=O)C1CC1,IC50,BMS/H77C/J416S,NS3/NS4A protease,Hepatitis C virus,,<0.1 µM
CCC(C)[C@H](NC(=O)[C@H](CC(C)C)NC(=O)CCC(=O)O)C(=O)N[C@@H](CC1CCCCC1)C(=O)N[C@@H](CS)C(=O)O,inhibition,,Nonstructural protein 3 NTPase/helicase,Hepatitis C virus,16.7 µM,30%
CC(=O)N[C@@H](CC(=O)O)C(=O)N[C@H](CC(C(=O)O)C(=O)O)C(=O)N[C@H](C(=O)N[C@@H](CCC(=O)O)C(=O)N[C@@H](CC1CCCCC1)C(=O)N[C@@H](CS)C(=O)C(=O)O)C(C)(C)C,Ki,,NS3/NS4A serine protease,Hepatitis C virus,,0.02 µM
CSc1ncc(C(=O)NCCc2ccccn2)c(Nc2ccc3cn[nH]c3c2)n1,IC50,,Reverse transcription,Hepatitis B virus,,~0.01 µg/mL
CCC(C)[C@H](NC(=O)[C@@H](NC(=O)CCC(=O)O)C1CCCCC1)C(=O)N[C@@H](CCC(=O)O)C(=O)N[C@@H](CS)C(=O)O,inhibition,,Nonstructural protein 3 NTPase/helicase,Hepatitis C virus,167 µM,82%
COC(=O)[C@H](Cc1cnc[nH]1)NC(=O)c1cnn2c(C3CCCCC3)c(-c3ccc(F)cc3)cnc12,IC50,,RNA-dependent RNA polymerase,Hepatitis C virus,,<1 µM
CSc1ncc(C(=O)NCCO)c(Nc2ccc3[nH]ncc3c2)n1,IC50,,Reverse transcription,Hepatitis B virus,,~0.01 µg/mL
CSCC[C@H](NC(=O)[C@H](CCC(=O)O)NC(=O)[C@H](CC(=O)O)NC(C)=O)C(=O)N[C@@H](CCC(=O)O)C(=O)N[C@@H](Cc1ccc2ccccc2c1)C(=O)N[C@@H](CS)C(=O)O,Ki,,NS3/NS4A serine protease,Hepatitis C virus,,0.4 µM
CSc1ncc(C(=O)NCCO)c(Nc2ccc3cn[nH]c3c2)n1,IC50,,Reverse transcription,Hepatitis B virus,,0.01 µg/mL
C=CC1CC1(NC(=O)[C@@H]1C[C@@H](OC(=O)Nc2nc(Cl)c(Cl)nc2C(=O)OC)CN1C(=O)[C@@H](NC(=O)OC(C)(C)C)C(C)(C)C)C(=O)NS(=O)(=O)C1CC1,IC50,BMS/H77C/J416S,NS3/NS4A protease,Hepatitis C virus,,<0.1 µM
CCOC(=O)c1cnn2c(-c3cccc(Oc4ccccc4)c3)c(-c3ccccc3)cnc12,IC50,,RNA-dependent RNA polymerase,Hepatitis C virus,,>10 µM
CSc1ncc(C(=O)NCCN2CCOCC2)c(Nc2ccc3[nH]ncc3c2)n1,IC50,,Reverse transcription,Hepatitis B virus,,<1 µg/mL

For reference, 2 entries again:

SMILES | measure | strain or isolate | target | species | tested at | result
O=C(O)c1cc2nc(-c3ccccc3Cl)cc(-c3cccc(Cl)c3)n2n1 | IC50 |  | RNA-dependent RNA polymerase | Hepatitis C virus |  | >10 µM
CC(=O)N[C@@H](CC(=O)O)C(=O)N[C@H](CC(C(=O)O)C(=O)O)C(=O)N[C@@H](Cc1c[nH]c2cccc(C(=O)O)c12)C(=O)N[C@@H](CCC(=O)O)C(=O)N[C@@H](CC(=O)O)C(=O)N[C@@H](CS)C(=O)C(=O)O | Ki |  | NS3/NS4A serine protease | Hepatitis C virus |  | 0.0000027 µM

Two numbers with a dash give a range or band. ICn: concentration for n% inhibition. Neighbouring rows are from separate reports. Inhibition is in % at the dose shown (toxicity tests: loss of growth or viability).